# Data taken from article PMC3001019.
# Molecular target: His-GyrA59 (59-kDa N-terminal fragment of E. coli GyrA, residues 2-523) (E. coli) (UniProt P0AES4)
# Assay: SPR
substance,measurement,value
"Vibrio cholerae ParE2, native (His6 tag removed) (natural protein)",Kd,0.02 nM
